Experimental data published in paper PMC3197488.

System: Pae chi-psi complex (DNA polymerase III) (Pseudomonas aeruginosa PAO1)
Assay: EMSA
Conditions: low salt, Low salt: 5 mM NaCl, 5 mM KPi pH 7.4, 0.87 M glycerol, 0.5 mM DTT, high salt: 0.3 M NaCl, AUC at 20 C, recombinant protein, protein details: GST on psi, cleaved by PreScission

Row | Sequence | binding result (somewhat lower affinity than ssDNA, 20 mM KPi pH 7.4, 0.5 mM DTT, label: 5' 6FAM on strand A) | binding result (bound more strongly than dsDNA, 20 mM KPi pH 7.4, 0.5 mM …, label: 5' 6FAM, single-stranded DNA)
1 | GGATACGTAACAACGCTTATGCATCGCCGCCGCTACATCCCTGAGCTGAC (double strand) [50mer dsDNA (A/B)] | binds | 
2 | GGATACGTAACAACGCTTATGCATCGCCGCCGCTACATCCCTGAGCTGAC [50mer ssDNA (oligonucleotide A)] |  | binds

For at least one entry, the source does not settle the construct or the ends of the probe.
